PSTVd stem 3 mutant pool in Nicotiana benthamiana

The measurements come from Wu et al. 2024 (doi:10.1371/journal.ppat.1012142).

PSTVd intermediate strain, stem 3: wild type GUGGUUCCGGAACCGC, pool pattern GUGGUUCCGNANNCNN; upper and lower strand joined, each 5' to 3', the first 8 letters being the upper strand.

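A pool of all variants was put on leaves of three Nicotiana benthamiana plants. Samples came from the inoculated region at 5 days, the leaf margin at 10 and upper systemic leaves at 12.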

Values are reads per thousand in the sample; higher means more abundant, 0 means not found. Each site shows the three plants. "Pool" is the share in the plasmid pool used as inoculum, on the same scale. The inoculated region was read from the minus strand, the other sites from the plus strand. IR is the inoculated region, LM the leaf margin, Sys the systemic leaves. Wild type was 17.3 per thousand in the pool and the most common sequence in every sample (inoculated region 330, 345, 235; leaf margin 794, 766, 816; systemic leaves 830, 792, 869). Samples held 27,691 to 54,225 reads, so the smallest values rest on one or two reads. The authors trace changes outside the varied positions to PCR and sequencing errors or to mutation in the plant; presence does not show that a variant is infectious alone.

- GUGGUUCCGCAGCCGG (pool 0.769) = IR 0.560 / 0.280 / 0.216; LM 0 / 0 / 0.0361; Sys 0 / 0 / 0
- GUGGUUCCGUAGCCUA (pool 1.43) = IR 0.533 / 0.690 / 0.649; LM 0.0283 / 0 / 0; Sys 0.0186 / 0 / 0.0973
- GUGGUUCCGUAUCCAA (pool 0.662) = IR 0.506 / 0.388 / 0.351; LM 0 / 0 / 0.0361; Sys 0 / 0 / 0
- GUGGUUCCGAAUGCUA (pool 0.754) = IR 0.426 / 0.323 / 0.351; LM 0.0283 / 0 / 0; Sys 0 / 0 / 0
- GUGGUUCCGCACUCAC (pool 0.846) = IR 0.666 / 0.539 / 0.676; LM 0.0283 / 0.0318 / 0; Sys 0 / 0 / 0
- GUGGUUCCGGACUCAA (pool 0.800) = IR 0.880 / 0.604 / 0.865; LM 0 / 0 / 0.469; Sys 0 / 0 / 0
- GUGGUUCCGAAAUCAG (pool 1.02) = IR 0.986 / 0.582 / 0.919; LM 1.50 / 1.15 / 0.433; Sys 1.14 / 1.27 / 0.851
- GUGGUUCCGUAUUCUU (pool 1.80) = IR 1.63 / 1.36 / 1.84; LM 0.0283 / 0.0318 / 0; Sys 0.0186 / 0 / 0
- GUGGUUCCGUAUUCGU (pool 0.877) = IR 1.52 / 1.34 / 2.32; LM 0.708 / 0 / 0.650; Sys 0 / 0 / 0
- GUGGUUCCGUACGCGC (pool 0.877) = IR 0.267 / 0.323 / 0.216; LM 0 / 0.0318 / 0; Sys 0 / 0 / 0
- GUGGUUCCGCAGGCUU (pool 0.831) = IR 0.746 / 0.733 / 1.08; LM 0 / 0 / 0.0361; Sys 0 / 0 / 0
- GUGGUUCCGCAGACGG (pool 0.846) = IR 0.506 / 0.302 / 0.243; LM 0 / 0.0636 / 0.0361; Sys 0 / 0 / 0
- GUGGUUCCGAAGUCAG (pool 1.05) = IR 0.773 / 0.970 / 0.973; LM 1.47 / 0.986 / 0.325; Sys 1.21 / 1.22 / 0.730
- GUGGUUCCGAAAGCUA (pool 0.754) = IR 0.480 / 0.345 / 0.270; LM 0 / 0 / 0; Sys 0 / 0 / 0
- GUGUUUCCGCACUCAU (pool 0.0154) = IR 0 / 0 / 0; LM 0 / 0 / 0; Sys 0 / 0 / 0
- GUGGUUCCGUAGUCUU (pool 0.939) = IR 1.04 / 0.712 / 0.838; LM 0 / 1.15 / 0.325; Sys 0 / 0 / 0
- GUGGUUCCGGACCCGU (pool 0.985) = IR 0.160 / 0.345 / 0.216; LM 0.0567 / 0 / 0.0361; Sys 0 / 0 / 0
- GUGGUUCCGAAACCCC (pool 0.893) = IR 0.853 / 0.712 / 0.838; LM 0.425 / 0 / 0.397; Sys 0 / 0 / 0
- GUGGUUCCGCAUGCCA (pool 0.877) = IR 0.213 / 0.323 / 0.135; LM 0 / 0.0318 / 0; Sys 0 / 0 / 0
- GUGGUUCCGUACUCGC (pool 0.769) = IR 0.347 / 0.302 / 0.189; LM 0.0283 / 0 / 0; Sys 0 / 0 / 0
- GUGGUUCCGGACUCGU (pool 1.29) = IR 1.04 / 0.712 / 1.00; LM 0 / 0 / 0.758; Sys 0.0186 / 0 / 0.0243
- GUGGUUCCGGAACCGC (pool 17.3) = IR 330 / 345 / 235; LM 794 / 766 / 816; Sys 830 / 792 / 869
- GUGGUUCCGCAUCCCA (pool 0.985) = IR 0.213 / 0.323 / 0.162; LM 0.0283 / 0.0318 / 0; Sys 0 / 0 / 0
- GUGGUUCCGUAAACCU (pool 0.846) = IR 0.506 / 0.323 / 0.189; LM 0 / 0 / 0; Sys 0 / 0 / 0
- GUGGUUCCGUACCCCU (pool 0.893) = IR 0.720 / 0.690 / 0.919; LM 0.227 / 0.0318 / 0.469; Sys 0 / 0 / 0
- GUGGUUCCGGAUUCGU (pool 2.17) = IR 1.84 / 1.49 / 2.19; LM 0.0283 / 0 / 0.469; Sys 0 / 0 / 0
- GUGGUCCCGCAGACGU (pool 0.0154) = IR 0 / 0 / 0; LM 0 / 0 / 0; Sys 0 / 0 / 0
- GUGGUUCCGUACGCCC (pool 1.00) = IR 0.347 / 0.388 / 0.216; LM 0 / 0 / 0; Sys 0 / 0 / 0
- GUGGUUCCGGAAGCGA (pool 0.677) = IR 0.213 / 0.259 / 0.297; LM 0 / 0.0636 / 0.0361; Sys 0 / 0 / 0
- GUGGUUCCGGAUACGC (pool 0.754) = IR 0.426 / 0.367 / 0.270; LM 0 / 0.0636 / 0.0722; Sys 0 / 0 / 0
- GUGGUUCCGAACACUG (pool 0.954) = IR 0.373 / 0.367 / 0.216; LM 0 / 0.0636 / 0; Sys 0 / 0 / 0
- GUGGUUCCGCAGCCCA (pool 0.908) = IR 0.293 / 0.431 / 0.270; LM 0 / 0.0636 / 0.0361; Sys 0 / 0 / 0
- GUGGUUCCGCAAACAU (pool 0.662) = IR 0.773 / 0.733 / 0.838; LM 0.0283 / 0 / 0.325; Sys 0 / 0 / 0

The first 4 entries again:

{"sequence": "GUGGUUCCGCAGCCGG", "pool": "0.769", "IR": "0.560 / 0.280 / 0.216", "LM": "0 / 0 / 0.0361", "Sys": "0 / 0 / 0"}
{"sequence": "GUGGUUCCGUAGCCUA", "pool": "1.43", "IR": "0.533 / 0.690 / 0.649", "LM": "0.0283 / 0 / 0", "Sys": "0.0186 / 0 / 0.0973"}
{"sequence": "GUGGUUCCGUAUCCAA", "pool": "0.662", "IR": "0.506 / 0.388 / 0.351", "LM": "0 / 0 / 0.0361", "Sys": "0 / 0 / 0"}
{"sequence": "GUGGUUCCGAAUGCUA", "pool": "0.754", "IR": "0.426 / 0.323 / 0.351", "LM": "0.0283 / 0 / 0", "Sys": "0 / 0 / 0"}